Results from article PMC3810934 (Emerging Infectious Diseases, 2013).

How the values were obtained:
[1] = molecular target: Oseltamivir-sensitive A/Washington/01/2007 neuraminidase (Influenza A virus (H3N2), UniProt A7UPN3); details: conventional NI assay pH 6.5; H3N2 reference virus A/Washington/01/2007
[2] = molecular target: Oseltamivir-sensitive A/California/12/2012 neuraminidase (Influenza A virus (H1N1pdm09), UniProt R4SI91); details: conventional NI assay pH 6.5; H1N1 reference virus A/California/12/2012
[3] = molecular target: A/Anhui/1/2013 (E2/S1) virus isolate neuraminidase (Influenza A virus (A/Anhui/1/2013(H7N9)), UniProt A0A024E3Q2); details: conventional NI assay pH 6.5; virus isolate A/Anhui/1/2013 (E2/S1)

Substance	Fold change in IC50 compared with drug-sensitive subtype-specific control [1]	Fold change in IC50 compared with drug-sensitive subtype-specific control [2]	Fold change in IC50 compared with drug-sensitive subtype-specific control [3]
oseltamivir carboxylate	1 -fold	–	–
peramivir	–	1 -fold	1 -fold
